Measurements reported in US20210024903A1, “Compositions and methods relating to a mutant clostridium difficile toxin” (Pfizer, published 2021).

Columns and labels:
[1] = biological target: T1, wild-type C. difficile toxin B (TcdB wt, from List Bio) (C. difficile strain 630, UniProt P18177 2-2366); assay: cell-based or functional assay
[2] = biological target: Mutant TcdB (SEQ ID NO: 6) L34346-38A, EDC (C. difficile strain 630)
[3] = biological target: Mutant TcdB (SEQ ID NO: 6) L44905-170B, Formalin (C. difficile strain 630)
[4] = biological target: Mutant TcdB (SEQ ID NO: 6) L44905-182, Formalin (C. difficile strain 630)
[5] = biological target: L44905-86-13 Triple mutant toxin B (SEQ ID NO: 6), Rxn3, 25 C, day 5 (Clostridium difficile 630)
[6] = biological target: L44905-86-01 Triple mutant toxin B (SEQ ID NO: 6), Untreated Control (Clostridium difficile 630)
[7] = biological target: L44905-86-06 Triple mutant toxin B (SEQ ID NO: 6), Rxn3, 10 C, day 1 (Clostridium difficile 630)
[8] = biological target: L44905-86-14 Triple mutant toxin B (SEQ ID NO: 6), Rxn1, 10 C, day 7 (Clostridium difficile 630)
[9] = biological target: L44905-86-02 Triple mutant toxin B (SEQ ID NO: 6), Rxn1, 10 C, day 1 (Clostridium difficile 630)
[10] = biological target: L44905-86-08 Triple mutant toxin B (SEQ ID NO: 6), Rxn1, 10 C, day 5 (Clostridium difficile 630)
[11] = biological target: L44905-86-07 Triple mutant toxin B (SEQ ID NO: 6), Rxn3, 25 C, day 1 (Clostridium difficile 630)
[12] = biological target: L44905-86-09 Triple mutant toxin B (SEQ ID NO: 6), Rxn1, 25 C, day 5 (Clostridium difficile 630)
[13] = biological target: L44905-86-04 Triple mutant toxin B (SEQ ID NO: 6), Rxn2, 10 C, day 1 (Clostridium difficile 630)
[14] = biological target: L44905-86-19 Triple mutant toxin B (SEQ ID NO: 6), Rxn3, 25 C, day 7 (Clostridium difficile 630)
[15] = biological target: L44905-86-12 Triple mutant toxin B (SEQ ID NO: 6), Rxn3, 10 C, day 5 (Clostridium difficile 630)
[16] = biological target: L44905-86-05 Triple mutant toxin B (SEQ ID NO: 6), Rxn2, 25 C, day 1 (Clostridium difficile 630)
[17] = biological target: L44905-86-03 Triple mutant toxin B (SEQ ID NO: 6), Rxn1, 25 C, day 1 (Clostridium difficile 630)
[18] = biological target: L44905-86-10 Triple mutant toxin B (SEQ ID NO: 6), Rxn2, 10 C, day 5 (Clostridium difficile 630)
[19] = biological target: L44905-86-15 Triple mutant toxin B (SEQ ID NO: 6), Rxn1, 25 C, day 7 (Clostridium difficile 630)
[20] = biological target: L44905-86-17 Triple mutant toxin B (SEQ ID NO: 6), Rxn2, 25 C, day 7 (Clostridium difficile 630)
[21] = biological target: Mutant toxin B sample L34346-30B (Clostridium difficile 630)
[22] = biological target: L44905-86-18 Triple mutant toxin B (SEQ ID NO: 6), Rxn3, 10 C, day 7 (Clostridium difficile 630)
[23] = biological target: L44905-86-11 Triple mutant toxin B (SEQ ID NO: 6), Rxn2, 25 C, day 5 (Clostridium difficile 630)
[24] = biological target: L44905-86-16 Triple mutant toxin B (SEQ ID NO: 6), Rxn2, 10 C, day 7 (Clostridium difficile 630)
[25] = biological target: T1, wild-type C. difficile toxin B (TcdB …); assay: dot blot, nondenaturing

B1: B59-3 mAb (antibody, V domains shown)
VH: QVQLQQPGAELVKPGASVKLSCKASGYTFTSYWMHWVKQRPGQGLEWIGVINPSNGRSTYSEKFKTTATVTVDKSSSTAYMQLSILTSEDSAVYYCARAYYSTSYYAMDYWGQGTSVTVSS
VL: VLMTQSPLSLPVSLGDQASISCRSSQNIVHSNGNTYLEWYLQKPGQSPKLLIYKVSNRFSGVPDRFSGSGSGTYFTLKISRVEAEDLGVYYCFQGSHFPFTFGTGTKLEIKR
In the case of B1, the “Neut titer, ATP” value [1] is reported as 120 and the “Neut titer, CPE” value [1] is reported as 320.

B2: B8-26 mAb (antibody, V domains shown)
VH: QVQLQQPGAELVKPGAPVKLSCKASGYSFTSYWMNWVKQRPGRGLEWIGRIDPSNSEIYYNQKFKDKATLTVDKSSSTAYIQLSSLTSEDSAVYYCASGHYGSIFAYWGQGTTLTVSS
VL: VQITQSPSYLAASPGETITINCRASKSISKYLAWYQEKPGKTNKLLLYSGSTLQSGIPSRFSGSRSGTDFTLIISSLEPEDSAMYYCQQHNEYPLTFGAGTKLELKR
B2: binds [2]; binds [3]; binds [4]. The “Neut titer, ATP” value [1] was 5000 and the “Neut titer, CPE” value [1] was 20500.

B3: B8-26 + B59-3 (mixture of two mAbs) (other)
VH 1: B2 VH
VL 1: VQITQSPSYLAASPGETITINCRASKSISKYLAWYQEKPGKTNKLLLYSGSTLQSGIPSRFSGSRSGTDFTLIISSLEPEDSAMYYCQQHNEYPLTFGAGTKLELKRADAAPTVSIFPPSSEEFQ
VH 2: B1 VH
VL 2: VLMTQSPLSLPVSLGDQASISCRSSQNIVHSNGNTYLEWYLQKPGQSPKLLIYKVSNRFSGVPDRFSGSGSGTYFTLKISRVEAEDLGVYYCFQGSHFPFTFGTGTKLEIKRADAAPTVSIFPPSSEEFQ
For B3, the “Neut titer, ATP” value [1] was about 60000 and the “Neut titer, CPE” value [1] was 655000.

B4: B8-26 (antibody, V domains shown)
VH: B2 VH
VL: B2 VL
B4: binds [5]; binds [6]; binds [7]. B4: binds [8]; binds [9]; binds [10]. B4: binds [11]; binds [12]; binds [13]. B4: binds [14]; binds [15]; binds [16]. B4: binds [17]; binds [18]; binds [19]. B4: binds [20]; binds [21]; binds [22]. B4: binds [23]; binds [24].

B5: A3-25 mAb (antibody, V domains shown)
VH: EVNLEESGGGLVQPGGSMKLSCVASGFTFTNYWMNWVRQSPEKGLEWIAEIRLKSHNYATHFAESVKGRFTISRDDSKSAVSLQMTNLTPEDTGIFYCTWDYYGNPAFVYWGQGTLVTVSA
VL: DVVMTHTPLSLPVSLGDQASMSCRSSQSLIHSNGNTYLHWYLQKPGQSPKLLISKVSNRFSGVPDRFSGSGSGTDFTLKISRVEAEDLGVYFCSQTTYFPYTFGGGTRLEIKR
B5: no binding [25].
